Tests used:
Assay in all cases: ITC
Details in all cases: both partners purified
[1] = biological target: T1, GABARAP (residues 1-117 of human GABARAP) (human, UniProt O95166 1-117)
[2] = biological target: T2, LC3A (residues 1-121 of human LC3A) (human, UniProt Q9H492 1-121)
[3] = biological target: T3, GABARAPL2 (residues 1-117 of human GABARAPL2) (human, UniProt P60520 1-117)
[4] = biological target: T4, LC3C (residues 8-125 of human LC3C) (human, UniProt Q9BXW4 8-125)
[5] = biological target: T1, GABARAP (residues 1-117 of human …); remark: listed apart in the source
[6] = biological target: T2, LC3A (residues 1-121 of human LC3A); remark: listed apart in the source
[7] = biological target: T3, GABARAPL2 (residues 1-117 of human …); remark: listed apart in the source
[8] = biological target: T4, LC3C (residues 8-125 of human LC3C); remark: listed apart in the source

The chains behind the UniProt entries cited, without tags or fusion partners. Residues count along the entry.
UniProt Q9BXW4, 8-125: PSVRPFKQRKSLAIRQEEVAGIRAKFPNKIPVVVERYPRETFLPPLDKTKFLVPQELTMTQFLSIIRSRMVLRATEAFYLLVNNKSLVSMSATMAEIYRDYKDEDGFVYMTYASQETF

B1: NSs4 (residues 247-265 of RVFV NSs) (peptide)
peptide: DVEMESEEESDDDGFVEVD
- Kd [1]: 430 nM
- Kd [2]: 240 nM
- Kd [3]: 2200 nM
- Kd [4]: 200 nM
- stoichiometry N [5]: 1
- stoichiometry N [6]: 1
- stoichiometry N [7]: 1
- stoichiometry N [8]: 1

Reference: article PMC10986958 (PLOS Pathogens, 2024)
